We go through 14 test systems from the supplement of paper PMC3578754.

Holding throughout (assay): fold change of IC50 against reference virus; higher = more resistant
Compound in assay [1]: CC(C)Nc1cccnc1N1CCN(C(=O)c2cc3cc(NS(C)(=O)=O)ccc3[nH]2)CC1 [delavirdine]
The procedure:
(§1)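 Cell-culture drug susceptibility tests of virus bearing the reverse transcriptase of each isolate, gathered from many studies.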

Compound in assay [2]: C[C@H](Cn1cnc2c(N)ncnc21)OCP(=O)(O)O [tenofovir]
The procedure: as §1

Compound in assay [3]: Cc1ccnc2c1NC(=O)c1cccnc1N2C1CC1 [nevirapine]
The procedure:
as §1

Compound in assay [4]: Cc1cn([C@H]2C=C[C@@H](CO)O2)c(=O)[nH]c1=O [stavudine]
As to the method:
as §1

Compound in assay [5]: Cc1cn([C@H]2C[C@H](N=[N+]=[N-])[C@@H](CO)O2)c(=O)[nH]c1=O [zidovudine]
As to the method:
as §1

Compound in assay [6]: Nc1ccn([C@H]2CC[C@@H](CO)O2)c(=O)n1 [zalcitabine]
As to the method:
as §1

Compound in assay [7]: Nc1nc(NC2CC2)c2ncn([C@H]3C=C[C@@H](CO)C3)c2n1 [abacavir]
As to the method:
as §1

Compound in assay [8]: O=C1Nc2ccc(Cl)cc2[C@@](C#CC2CC2)(C(F)(F)F)O1 [efavirenz]
As to the method: as §1

Compound in assay [9]: O=c1[nH]cnc2c1ncn2[C@H]1CC[C@@H](CO)O1 [didanosine]
As to the method: as §1

Fold change is the IC50 on the isolate divided by the IC50 on a reference virus; 1 = unchanged, higher = more resistant. Changes are given against the subtype B consensus. No active / inactive call. The values were gathered from many studies (numbered anew) with different assays, which the source does not name. Most viruses are clinical isolates; some are laboratory strains or clones with known resistance changes. Isolates with mixed residues are left out; stretches that were not sequenced show no change. Round top values that many isolates share are read here as limits; other very high values and 0.1 may be limits too.

Regarding “HIV-1 isolate 203 (reverse transcriptase changes: M41L S48T D67N T69N K70R K122E M184V G196E H208Y T215F D218E K219Q V245M A272P A288T E297K, study 121)”, the “fold change of IC50 against reference virus” value (“fold change of IC50” for short) in assay [1] is 0.5; in assay [2], 1.4; in [3], 0.5; in assay [4], 2.3; in assay [5], 33; in assay [6], 2.3. Also, the entries for the “fold change of IC50” value in assay [7], in assay [8] and in assay [9] were 6.8, 0.3 and 1.9, respectively.

On to “HIV-1 isolate 381 (reverse transcriptase changes: T39A M41L E44D D67N K70R K122E I142V M184V I202V L210W R211K T215Y K219Q A288T, study 121)”, for which the “fold change of IC50” value was 0.6 in [1]; 2.4 in assay [2]; 0.6 in assay [3]; 3 in [4]; 113 in assay [5]; 2.4 in assay [6]. The figures for the “fold change of IC50” value in assay [7], in assay [8] and in [9] were 7.7, 0.5 and 1.9, respectively.

Regarding “HIV-1 isolate 882 (reverse transcriptase changes: V21I T139R M184V T200A Q207E R211K K238N A272P P294T E297K, study 12)”, the “fold change of IC50” value in assay [1] turned out to be 19; in [2] it was 0.7; in assay [3], 34; in assay [4], 0.7; in assay [5], 0.9; in assay [6], 2.1. Besides, the “fold change of IC50” value in assay [7] stood at 2.6; in assay [8] it was 4; in [9], 1.7.

Turning to “HIV-1 isolate 662 (reverse transcriptase changes: V35I M41L K43Q D67G A98S K102Q D121Y K122E I135T V179E Y181C M184V I195M T200A L210W T215Y K223Q L228R V245M, study 121)”, the “fold change of IC50” value is 15 in assay [1]; 0.8 in [2]; 280 in assay [3]; 2 in assay [4]; 1.9 in assay [5]; 2.2 in assay [6]. Moreover, the “fold change of IC50” value turned out to be 4.8 in [7], 3.7 in assay [8] and 1.7 in assay [9].

With “HIV-1 isolate 341 (reverse transcriptase changes: V35T M41L K49R V60I D67N T69G A158S M184V G196E L210W T215Y Q278H T286A E297K, study 121)”, the “fold change of IC50” value in [1] came to 0.3; in [2] it was 1.2; in assay [3], 0.5; in [4] it was 2; in assay [5], 9.9; in assay [6] it was 2.7. Moreover, the “fold change of IC50” value in assay [7] was 6.9; in assay [8], 0.2; in assay [9], 1.8.

For the test system “HIV-1 isolate 1306 (reverse transcriptase changes: D67N K70R L100I K102R K103N I135V I142V Q174H V179I G196E R211G F214L T215F K219Q A272S I293V E297A E308G, study 121)”, the “fold change of IC50” value in assay [1] is no less than 250; in assay [2], 1.4; in assay [3], 33; in [4], 1.4; in assay [5] it was 30; in assay [6], 0.5. The “fold change of IC50” value was found to be 0.8 in assay [7], 700 in assay [8] and 0.8 in [9].

On to “HIV-1 isolate 951 (reverse transcriptase changes: E36G M41L K43Q D67N I135T M184V L210W R211D T215Y V245M A272P K277R, study 121)”, for which the “fold change of IC50” value in [1] is 0.3; in assay [2] it was 2.6; in assay [3] it was 0.7; in assay [4], 2.3; in assay [5] it was 64; in assay [6], 2.4. The “fold change of IC50” value is 7.3 in [7], 0.4 in [8] and 2.3 in assay [9].

For “HIV-1 isolate 1137 (reverse transcriptase changes: T27S V60I D67N T69N K70R K103S I135T Y188H G190A T215F D218E K219E E248Q K249Q A288T P294L, study 15)”, the “fold change of IC50” value in assay [1] was 7.4; in [2] it was 4; in assay [3], 800; in [4] it was 2.1; in assay [5], 677; in [6], 2.1. In addition, the “fold change of IC50” value in [7] was found to be 3.1; in assay [8], 800; in [9] it was 1.3.

For “HIV-1 isolate 353 (reverse transcriptase changes: V60I F116Y K122E D123E I135V I142V Q151M T200A I202V F214L V245M K277R Q278E T286A I293V E297T, study 121)”, the “fold change of IC50” value was found to be 1.2 in [1]; 1.4 in [2]; 1.3 in [3]; 7.1 in [4]; 9.5 in [5]; 10 in [6]. Moreover, the figures for the “fold change of IC50” value in assay [7], in assay [8] and in assay [9] were 5, 1.1 and 8.1, respectively.

Regarding “HIV-1 isolate 447 (reverse transcriptase changes: K20R V60I K64R D67N K70R A98G I159L Q174R Y181C M184V E203K Q207E R211K F214L D218E K219E E224K A272P T286A, study 15)”, the “fold change of IC50” value in assay [1] is 41; in assay [2], 1.4; in assay [3] it was no less than 400; in assay [4], 1.9; in assay [5], 9.7; in assay [6] it was 1.9. In addition, the results for the “fold change of IC50” value in [7], in assay [8] and in assay [9] were 6.7, 7.3 and 1.7, respectively.

Consider “HIV-1 isolate 1526 (reverse transcriptase changes: V35M T39A M41L K43E D67N V118I D123E D177E M184V G196E E203K Q207E H208Y L210W R211K T215Y K223Q A272P T286A E297R K311R, study 121)”, for which the “fold change of IC50” value stood at 0.1 in assay [1]; 1.5 in assay [2]; 0.3 in assay [3]; 4.1 in [4]; 24 in [5]; 3.3 in [6]. The “fold change of IC50” value in assay [7] was found to be 7.4; in [8], 0.2; in assay [9] it was 2.1.

For the test system “HIV-1 isolate 1633 (reverse transcriptase changes: M41L D67N T69D K103N L210W T215Y, study 15)”, the “fold change of IC50” value turned out to be 5.8 in [1]; 4.6 in assay [2]; 22 in [3]; 4.3 in assay [4]; 900 in assay [5]; 1.7 in [6]. The “fold change of IC50” value is 6.7 in [7], 7.5 in assay [8] and 1.9 in assay [9].

In the case of “HIV-1 isolate 1622 (reverse transcriptase changes: K103N I142V M184V R211G F214L A272P T286A K311R V317A Q334Y, study 15)”, the “fold change of IC50” value was 40 in [1]; 0.6 in [2]; 48 in assay [3]; 0.8 in [4]; 0.5 in assay [5]; 1.6 in [6]. The “fold change of IC50” value came to 3.4 in assay [7], 19 in assay [8] and 1.3 in [9].

Take “HIV-1 isolate 756 (reverse transcriptase changes: R83K K103N I135V E169D Y181C G190A T200A Q207E T215Y K238N V245E, study 121)”: the “fold change of IC50” value in assay [1] was no less than 250; in [2] it was 0.9; in assay [3], no less than 400; in assay [4], 1.5; in [5] it was 3; in [6], 0.7. The “fold change of IC50” value in assay [7] stood at 1.2; in assay [8], 700; in assay [9], 0.9.
